This assay has as its target MVIIA (SNX-111) binding site (site 1) (Rattus norvegicus, UniProt Q02294). The settings on record: read-out: IC50 (nM), competition of 125I-MVIIA (SNX-111) binding; rat brain synaptosomal membranes.

The chains behind the UniProt entries cited, without tags or fusion partners.
UniProt Q02294, whole entry, looked up: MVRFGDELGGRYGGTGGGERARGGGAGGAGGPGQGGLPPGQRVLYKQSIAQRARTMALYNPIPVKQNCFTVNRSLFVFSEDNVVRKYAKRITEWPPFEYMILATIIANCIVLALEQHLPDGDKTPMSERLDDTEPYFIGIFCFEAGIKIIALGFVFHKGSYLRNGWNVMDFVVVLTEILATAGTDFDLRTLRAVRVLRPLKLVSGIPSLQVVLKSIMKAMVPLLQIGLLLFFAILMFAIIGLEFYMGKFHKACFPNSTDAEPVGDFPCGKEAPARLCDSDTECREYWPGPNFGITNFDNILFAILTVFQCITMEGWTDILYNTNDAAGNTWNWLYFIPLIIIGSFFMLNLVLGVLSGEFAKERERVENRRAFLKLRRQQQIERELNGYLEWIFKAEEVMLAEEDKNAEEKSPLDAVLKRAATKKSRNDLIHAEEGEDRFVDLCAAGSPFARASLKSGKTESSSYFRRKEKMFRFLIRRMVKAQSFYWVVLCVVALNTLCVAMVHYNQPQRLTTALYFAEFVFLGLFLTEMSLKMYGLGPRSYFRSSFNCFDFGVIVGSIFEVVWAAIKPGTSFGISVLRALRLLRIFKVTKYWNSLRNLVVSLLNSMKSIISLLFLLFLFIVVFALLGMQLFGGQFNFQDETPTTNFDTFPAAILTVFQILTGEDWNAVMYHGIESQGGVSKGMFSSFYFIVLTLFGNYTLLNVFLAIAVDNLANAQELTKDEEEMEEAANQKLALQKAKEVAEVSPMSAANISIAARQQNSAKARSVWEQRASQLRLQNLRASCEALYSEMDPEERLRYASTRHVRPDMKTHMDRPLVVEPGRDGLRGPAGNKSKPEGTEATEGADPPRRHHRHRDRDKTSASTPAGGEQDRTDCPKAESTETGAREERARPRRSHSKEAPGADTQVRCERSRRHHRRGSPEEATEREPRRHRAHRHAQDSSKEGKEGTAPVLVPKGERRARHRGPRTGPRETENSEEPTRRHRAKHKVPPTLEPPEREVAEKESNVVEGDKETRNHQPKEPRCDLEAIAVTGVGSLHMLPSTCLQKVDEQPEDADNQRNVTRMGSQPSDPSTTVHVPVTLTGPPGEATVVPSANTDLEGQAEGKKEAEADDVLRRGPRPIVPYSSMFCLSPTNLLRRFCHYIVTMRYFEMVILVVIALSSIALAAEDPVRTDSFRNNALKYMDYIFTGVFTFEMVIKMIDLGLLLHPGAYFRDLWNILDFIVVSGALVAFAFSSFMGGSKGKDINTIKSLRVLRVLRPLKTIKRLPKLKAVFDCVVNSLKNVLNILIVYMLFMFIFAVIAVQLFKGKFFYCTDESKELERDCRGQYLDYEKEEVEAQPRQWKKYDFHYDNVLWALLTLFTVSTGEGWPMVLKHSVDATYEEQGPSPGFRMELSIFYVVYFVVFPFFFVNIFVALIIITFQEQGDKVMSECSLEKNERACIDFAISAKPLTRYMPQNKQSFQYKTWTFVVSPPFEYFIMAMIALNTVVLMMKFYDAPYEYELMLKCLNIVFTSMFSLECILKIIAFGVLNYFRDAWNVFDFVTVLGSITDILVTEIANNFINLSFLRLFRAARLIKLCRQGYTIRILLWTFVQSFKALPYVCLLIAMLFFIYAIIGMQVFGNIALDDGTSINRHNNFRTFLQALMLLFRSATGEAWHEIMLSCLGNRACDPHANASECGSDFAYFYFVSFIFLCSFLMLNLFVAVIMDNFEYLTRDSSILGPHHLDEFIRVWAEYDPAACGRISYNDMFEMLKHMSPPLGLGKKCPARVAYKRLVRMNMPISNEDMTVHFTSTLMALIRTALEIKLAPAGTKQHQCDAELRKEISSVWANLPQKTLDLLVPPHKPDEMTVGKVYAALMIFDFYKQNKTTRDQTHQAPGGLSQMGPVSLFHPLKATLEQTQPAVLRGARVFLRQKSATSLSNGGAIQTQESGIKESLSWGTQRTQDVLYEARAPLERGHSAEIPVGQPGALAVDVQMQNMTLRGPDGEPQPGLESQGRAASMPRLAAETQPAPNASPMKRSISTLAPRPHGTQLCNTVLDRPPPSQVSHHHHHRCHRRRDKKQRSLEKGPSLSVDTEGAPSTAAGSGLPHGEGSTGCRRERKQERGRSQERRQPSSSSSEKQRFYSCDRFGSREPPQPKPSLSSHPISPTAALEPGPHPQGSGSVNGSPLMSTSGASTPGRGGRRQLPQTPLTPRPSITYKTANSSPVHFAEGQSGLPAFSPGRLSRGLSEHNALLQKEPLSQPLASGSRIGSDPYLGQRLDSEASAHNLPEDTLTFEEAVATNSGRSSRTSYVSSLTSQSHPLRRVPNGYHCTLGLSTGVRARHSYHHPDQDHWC

In general, IC50 refers to the midpoint of a concentration-inhibition curve. As to `CSCC[C@@H]1NC(=O)[C@H]([C@@H](C)O)NC(=O)[C@H](CCCCN)NC(=O)[C@H](CCCNC(=N)N)NC(=O)[C@@H]2CSSC[C@@H]3NC(=O)[C@H](CO)NC(=O)CNC(=O)[C@H](CO)NC(=O)[C@H](CSSC[C@H](N)C(=O)N[C@@H](CCCCN)C(=O)NCC(=O)N[C@@H](CCCCN)C(=O)NCC(=O)N[C@@H](C)C(=O)N4C[C@H](O)C[C@H]4C(=O)N2)NC(=O)[C@H](CSSC[C@@H](C(N)=O)NC(=O)[C@H](CCCCN)NC(=O)CNC(=O)[C@H](CCCNC(=N)N)NC(=O)[C@H](CCCNC(=N)N)NC(=O)CNC3=O)NC(=O)[C@H](CC(=O)O)NC(=O)[C@H](Cc2ccc(O)cc2)NC1=O`, the IC50 is 0.153 nM.

For the origin of these results see patent US5364842A (priority 1993, dated 1994).
